{"source": "paper PMC10313052", "about": "“Filarial DAF-12 sense the host serum to resume iL3 development during infection” (PLOS Pathogens, 2023)", "target": "T1, BmaDAF-12 (Brugia malayi, UniProt A0A4E9F2L4, R841H)", "T1 sequence (A0A4E9F2L4 639-880 R841H)": "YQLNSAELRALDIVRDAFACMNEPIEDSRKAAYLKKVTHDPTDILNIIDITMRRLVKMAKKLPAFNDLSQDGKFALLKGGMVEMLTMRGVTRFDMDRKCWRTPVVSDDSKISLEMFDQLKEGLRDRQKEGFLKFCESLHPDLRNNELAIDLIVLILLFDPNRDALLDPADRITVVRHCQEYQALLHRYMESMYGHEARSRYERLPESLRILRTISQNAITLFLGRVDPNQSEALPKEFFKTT", "assay_type": "cell-based", "conditions": "read-out: EC50 (logEC50 SE) (converted); NIH3T3, 24 h, technical triplicates, Fig 2", "data": [{"substance": "3β-hydroxy-5-cholestenoic acid", "values": [{"measurement": "EC50", "result": 0.241, "unit": "µM"}]}]}
